# From patent US20010014364A1, “Use of stabilized bromine to improve quality and appearance of leafy vegetables or the like” (priority 1997, published 2001)
# System: leaf lettuce
# Assay: Shelf-life sensory rating (odor, browning/dark spots) of leaf lettuce during storage at 4-6° C.
# Design: key: PASS: Based on the odor and dark spot sensory scores, lettuce was given a pass or fail rating; FAIL: Lettuce was considered unacceptable if noticeable off-odors were noted and if significant browning or darks sports were present
compound,measurement,setting,value
"OCl [Bleach, sodium hypochlorite]",Sensory rating (PASS/FAIL) of leaf lettuce,"Day 0, 50 ppm av. Cl2",PASS
same,Sensory rating (PASS/FAIL) of leaf lettuce,"Day 0, 100 ppm av. Cl2",PASS
same,Sensory rating (PASS/FAIL) of leaf lettuce,"Day 0, 200 ppm av. Cl2",PASS
same,Sensory rating (PASS/FAIL) of leaf lettuce,"Day 1, 50 ppm av. Cl2",PASS
same,Sensory rating (PASS/FAIL) of leaf lettuce,"Day 1, 100 ppm av. Cl2",PASS
same,Sensory rating (PASS/FAIL) of leaf lettuce,"Day 1, 200 ppm av. Cl2",PASS
same,Sensory rating (PASS/FAIL) of leaf lettuce,"Day 2, 50 ppm av. Cl2",PASS
same,Sensory rating (PASS/FAIL) of leaf lettuce,"Day 2, 100 ppm av. Cl2",PASS
same,Sensory rating (PASS/FAIL) of leaf lettuce,"Day 2, 200 ppm av. Cl2",PASS
same,Sensory rating (PASS/FAIL) of leaf lettuce,"Day 4, 50 ppm av. Cl2",PASS
same,Sensory rating (PASS/FAIL) of leaf lettuce,"Day 4, 100 ppm av. Cl2",PASS
same,Sensory rating (PASS/FAIL) of leaf lettuce,"Day 4, 200 ppm av. Cl2",PASS
same,Sensory rating (PASS/FAIL) of leaf lettuce,"Day 5, 50 ppm av. Cl2",PASS
same,Sensory rating (PASS/FAIL) of leaf lettuce,"Day 5, 100 ppm av. Cl2",PASS
same,Sensory rating (PASS/FAIL) of leaf lettuce,"Day 5, 200 ppm av. Cl2",PASS
same,Sensory rating (PASS/FAIL) of leaf lettuce,"Day 6, 50 ppm av. Cl2",PASS
same,Sensory rating (PASS/FAIL) of leaf lettuce,"Day 6, 100 ppm av. Cl2",PASS
same,Sensory rating (PASS/FAIL) of leaf lettuce,"Day 6, 200 ppm av. Cl2",PASS
same,Sensory rating (PASS/FAIL) of leaf lettuce,"Day 7, 50 ppm av. Cl2",PASS
same,Sensory rating (PASS/FAIL) of leaf lettuce,"Day 7, 100 ppm av. Cl2",PASS
same,Sensory rating (PASS/FAIL) of leaf lettuce,"Day 7, 200 ppm av. Cl2",PASS
same,Sensory rating (PASS/FAIL) of leaf lettuce,"Day 8, 50 ppm av. Cl2",PASS
same,Sensory rating (PASS/FAIL) of leaf lettuce,"Day 8, 100 ppm av. Cl2",PASS
same,Sensory rating (PASS/FAIL) of leaf lettuce,"Day 8, 200 ppm av. Cl2",PASS
same,Sensory rating (PASS/FAIL) of leaf lettuce,"Day 9, 50 ppm av. Cl2",FAIL
same,Sensory rating (PASS/FAIL) of leaf lettuce,"Day 9, 100 ppm av. Cl2",PASS
same,Sensory rating (PASS/FAIL) of leaf lettuce,"Day 9, 200 ppm av. Cl2",PASS
same,Sensory rating (PASS/FAIL) of leaf lettuce,"Day 10, 50 ppm av. Cl2",FAIL
same,Sensory rating (PASS/FAIL) of leaf lettuce,"Day 10, 100 ppm av. Cl2",FAIL
same,Sensory rating (PASS/FAIL) of leaf lettuce,"Day 10, 200 ppm av. Cl2",FAIL
same,Sensory rating (PASS/FAIL) of leaf lettuce,"Day 11, 50 ppm av. Cl2",FAIL
same,Sensory rating (PASS/FAIL) of leaf lettuce,"Day 11, 100 ppm av. Cl2",FAIL
same,Sensory rating (PASS/FAIL) of leaf lettuce,"Day 11, 200 ppm av. Cl2",FAIL
same,Sensory rating (PASS/FAIL) of leaf lettuce,"Day 12, 50 ppm av. Cl2",FAIL
same,Sensory rating (PASS/FAIL) of leaf lettuce,"Day 12, 100 ppm av. Cl2",FAIL
same,Sensory rating (PASS/FAIL) of leaf lettuce,"Day 12, 200 ppm av. Cl2",FAIL
